Measurements reported in PubChem BioAssay AID504761 (Drosophila RNAi Screening Center, 2011).
Assay: 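Genome-wide fly cell screen for genes dengue virus requires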 (primary screen). Cells: D.Mel-2 cells from Drosophila. Reagents: long dsRNA against Drosophila genes. Treatment: infection with dengue virus type 2; dose and infection time not stated. Read-out: 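Cells stained for dengue envelope protein and imaged; percent of infected cells per well on duplicate plates, ranked by infection, with stained nuclei counted for cell number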. Direction: infection score: higher = more virus-infected cells; cell count: higher = more cells in the well. Call rule: 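Very low infection ranking in both replicate wells (chance probability at most 0.065), then a retest showing infection dropped 1.5-fold or more at p below 0.05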. Calls: active = confirmed: knock-down lowers infection; inactive = not picked or not confirmed.
In all, the deposit lists about 22,000 reagents; shown is a random part of those with a known target gene and a result. Of all reagents, 116 (0.52%) are marked active. 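Calls depend on retest data that are not deposited; infection was ranked per plate without normalising between plates; the unit of the infection score is not given.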 Raw values are not corrected between plates. Names joined by + are all predicted targets of the reagent. The record does not give: the amount of reagent, the time to read-out.

target gene,amplicon,"infection score, replicate 1","infection score, replicate 2","cell count, replicate 1","cell count, replicate 2",outcome
C901 (GeneID 32032),DRSC19351,0.55,1.21,6499,6593,inactive
C901 (GeneID 32032),DRSC28397,1.27,0.38,395,262,inactive
CG33218 (retired record) (GeneID 2768907),DRSC22944,1.16,3.77,6386,7238,inactive
CG9150 (GeneID 33856),DRSC03148,1.78,1.81,6296,6343,inactive
CG9150 (GeneID 33856),DRSC25676,4.41,8.88,6718,6252,inactive
Ppt2 (GeneID 34564),DRSC02786,33.8,11.1,5377,5641,inactive
Ppt2 (GeneID 34564),DRSC26027,5.36,8.63,4424,5999,inactive
Mst84Db (GeneID 40888),DRSC12542,7.83,1.49,6273,6768,inactive
Mst84Db (GeneID 40888),DRSC12598,6.55,7.2,5981,6641,inactive
Mst84Db (GeneID 40888),DRSC29236,25.5,10.9,4417,1299,inactive
VhaAC45 (GeneID 35944),DRSC07058,3.86,2.9,3654,4480,inactive
Gadd45 (GeneID 35646),DRSC06033,3.04,10.4,6649,6018,inactive
CG42269 (GeneID 38689),DRSC10670,0.77,2.12,6123,5856,inactive
CG42269 (GeneID 38689),DRSC10672,5.55,4.2,6159,5812,inactive
CG42269 (GeneID 38689),DRSC24477,1.61,14.4,6256,5043,inactive
CG42269 (GeneID 38689),DRSC26685,5.74,3.14,6426,5891,inactive
cort (GeneID 33937),DRSC02148,5.26,3.8,6728,6396,inactive
cort (GeneID 33937),DRSC26829,3.7,22.9,6751,6459,inactive
wac (GeneID 38044),DRSC08349,5.23,3.38,5470,6149,inactive
wac (GeneID 38044),DRSC28973,4.5,21.9,3024,6013,inactive
Vha13 (GeneID 42341),DRSC16895,8.07,2.37,5802,6654,inactive
Acsx2 (GeneID 42353),DRSC14308,7.9,4.8,3000,5000,inactive
Lnpk (GeneID 35842),DRSC07254,4.3,8.56,6469,6355,inactive
Lnpk (GeneID 35842),DRSC29127,,1.51,415,398,inactive
Lim1 (GeneID 31813),DRSC17752,8.6,9.97,6708,6658,inactive
muskelin (GeneID 36386),DRSC07273,5.71,10.1,6639,6398,inactive
CG1724 (GeneID 33097),DRSC20548,4.48,3.43,6428,5740,inactive
CG1724 (GeneID 33097),DRSC25668,4.5,2.93,5949,6017,inactive
CG31910 + snoRNA:Me28S-G2743 (retired record),DRSC00946,3.32,1.01,6110,6149,inactive
Nha2 (GeneID 42710),DRSC14689,6.79,8.95,1266,6189,inactive
Nha2 (GeneID 42710),DRSC15619,3.76,6.59,6351,6932,inactive
Nha2 (GeneID 42710),DRSC15623,6.52,2.69,5662,6427,inactive
Sgsh (GeneID 42266),DRSC14771,2.23,0.67,6471,6551,inactive
CG10298 (GeneID 40779),DRSC12522,2.37,5.82,6615,6273,inactive
CG10298 (GeneID 40779),DRSC25489,13.4,9.7,5806,5513,inactive
Pkc53E (GeneID 48311),DRSC07510,7.72,9.69,6815,6677,inactive
CG6290 (GeneID 32827),DRSC19979,2.19,8.66,6620,7071,inactive
CG6290 (GeneID 32827),DRSC25483,9.83,19.8,2207,6153,inactive
Shrm (GeneID 36592),DRSC06438,10.7,18.3,6811,6203,inactive
Shrm (GeneID 36592),DRSC07221,34,14,4678,6241,inactive
Shrm (GeneID 36592),DRSC23067,1.37,26.3,6111,5763,inactive
Shrm (GeneID 36592),DRSC25072,3,7.26,6208,5606,inactive
Shrm (GeneID 36592),DRSC27498,1.58,4.14,6824,869,inactive

Looked up above:
Value of C901 (GeneID 32032) [DRSC19351] under “outcome”: inactive
For “infection score, replicate 1”, cort (GeneID 33937) [DRSC26829] reads 3.7
Entry of CG42269 (GeneID 38689) [DRSC26685] under “outcome”: inactive
Lnpk (GeneID 35842) [DRSC07254], cell count, replicate 1 → 6469
Result for cort (GeneID 33937) [DRSC02148] in “outcome”: inactive
Result for Pkc53E (GeneID 48311) [DRSC07510] in “cell count, replicate 1”: 6815

Next records follow:
target gene,amplicon,"infection score, replicate 1","infection score, replicate 2","cell count, replicate 1","cell count, replicate 2",outcome
Kif3C (GeneID 43820),DRSC17209,2.6,1.61,6046,6695,inactive
Kif3C (GeneID 43820),DRSC17210,1.77,0.26,6483,6480,inactive
CG15753 (retired record) (GeneID 32306),DRSC22985,5.78,17.8,5142,4885,inactive
Den1 (GeneID 36339),DRSC07195,23.3,19.2,3934,5918,inactive
superdeath (GeneID 43444),DRSC14868,7.48,0.96,6830,6865,inactive
superdeath (GeneID 43444),DRSC24146,8.58,3.97,6541,6377,inactive
CG12784 (GeneID 41903),DRSC14539,4.25,7.95,6325,6776,inactive
hng2 (GeneID 41056),DRSC16412,5,0.83,6060,6766,inactive
Eip75B (GeneID 39999),DRSC23047,1.29,2.51,6440,6760,inactive
Rpn12R (GeneID 2768973),DRSC09842,1.73,1.86,6232,5982,inactive
CG3902 (GeneID 40059),DRSC10387,2.76,1.55,6845,6958,inactive
CG3902 (GeneID 40059),DRSC24267,3.66,2.7,6589,6307,inactive
obst-B (GeneID 34336),DRSC01987,15,13.1,6471,6428,inactive
CG33493 (GeneID 2768994),DRSC10642,2.98,2.33,6277,6180,inactive
CG33493 (GeneID 2768994),DRSC25546,1.51,3.9,6505,6125,inactive
CG9411 (GeneID 32392),DRSC20184,4.57,1.46,6301,6023,inactive
CG9411 (GeneID 32392),DRSC26840,1.44,4.39,5849,6064,inactive
CG9917 (GeneID 32596),DRSC20218,14,11.3,6613,6187,inactive
CG12865 (retired record) (GeneID 36633),DRSC06205,15.4,3.46,5747,6639,inactive
CG12865 (retired record) (GeneID 36633),DRSC25601,5.79,4.73,6128,6344,inactive
SCOT (GeneID 38261),DRSC08186,12.4,5.75,6639,6347,inactive
SCOT (GeneID 38261),DRSC26521,2.63,6.49,6271,5518,inactive
CG31115 (GeneID 318597),DRSC13692,0.93,0.14,6038,6475,inactive
CG31115 (GeneID 318597),DRSC26097,4.32,8.48,5160,6112,inactive
RpS14b (GeneID 47219),DRSC18711,7.29,8.16,1399,1238,inactive
Rab1 (GeneID 42524),DRSC16808,,3.18,342,5748,inactive
Rab1 (GeneID 42524),DRSC29851,3.07,16.7,5901,5546,inactive
Mp (GeneID 38769),DRSC10193,0.59,1.37,6243,7066,inactive
Mp (GeneID 38769),DRSC11029,3.54,2.24,6130,6204,inactive
Mp (GeneID 38769),DRSC11030,2.77,5.51,5875,5538,inactive
ninaB (GeneID 41678),DRSC16807,1.41,3.73,6604,6134,inactive
ninaB (GeneID 41678),DRSC27875,14.8,11.6,5252,4511,inactive
